A mixed list of measured activities; the numbers were collected in NIAID ChemDB.

All rows: tests on isolated targets

Blank or dashed fields: not listed here. Two numbers with a dash give a range or band. Inhibition is in % at the dose shown (toxicity tests: loss of growth or viability). ICn is the concentration giving n% inhibition. Fold resistance: result on the changed form divided by that on wild type. Lines come from different laboratories, so protocols vary.

{"smiles": "COc1ccnc2[nH]cc(C(=O)C(=O)N3CCN(C(=O)c4ccccc4)C[C@H]3C)c12", "protein": "gp120", "method": "ELISA", "measure": "IC50", "value": "1.3 µM"}
{"smiles": "CCN(C(=O)OCc1ccccc1)C1CCN(CC[C@](C)(CN(C)S(=O)(=O)c2ccccc2)c2ccccc2)CC1", "changes": "CCR5-Y251A", "protein": "CCR5", "method": "radiometric", "measure": "fold resistance", "value": "27.5"}
{"smiles": "Cn1c2ccccc2c2c3c(c4c5ccccc5n(CC(F)F)c4c21)CNC3=O", "protein": "Protein kinase C", "measure": "IC50", "value": "0.032 µM"}
{"smiles": "CC(C)(O)c1cccc(CN2C(=O)N(Cc3cccc(C(C)(C)O)c3)[C@H](Cc3ccccc3)[C@H](O)[C@@H](O)[C@H]2Cc2ccccc2)c1", "protein": "Cathepsin D", "measure": "inhibition", "tested at": "12.5 µM", "value": "0%"}
{"smiles": "C[C@@H](O)[C@H](NC(=O)OCc1ccccc1)C(=O)N[C@@H](CO)C(=O)NN", "protein": "Ornithine decarboxylase", "measure": "IC50", "value": "0.045 µM"}
{"smiles": "CN1CC[C@H](c2c(O)cc(O)c3c(=O)cc(-c4ccccc4F)oc23)[C@H](O)C1", "protein": "Cyclin-dependent kinase 7", "method": "kinase activity", "measure": "IC50", "value": "10 µM"}
{"smiles": "CC1CNCCN1S(=O)(=O)c1cccc2cnccc12", "protein": "Protein kinase A", "measure": "IC50", "value": "10 µM"}
{"smiles": "CCCCCCCCCCCCCCCCOCC(Cl)COP(=O)([O-])OCC[N+](C)(C)C", "protein": "Protein kinase C", "measure": "inhibition", "tested at": "19 µM", "value": "74%"}
{"smiles": "CN(C)CCCn1c2ccc(O)cc2c2c3c(c4c5cc(O)ccc5[nH]c4c21)C(=O)NC3=O", "protein": "Protein kinase C", "measure": "IC50", "value": "0.014 µM"}
{"smiles": "COc1ccc(C[C@H]2NC(=O)CNC(=O)[C@H](Cc3ccc4ccccc4c3)NC(=O)[C@H](CCCN=C(N)N)NC(=O)[C@H](CCCN=C(N)N)NC2=O)cc1", "protein": "CXCR4", "method": "radiometric", "measure": "IC50", "value": "0.51 µM"}
{"smiles": "O=C1N(Cc2ccc(CO)cc2)[C@H](Cc2ccccc2)[C@H](O)[C@@H](O)[C@@H](Cc2ccccc2)N1Cc1ccc(CO)cc1", "protein": "Cathepsin G", "measure": "inhibition", "tested at": "80 µM", "value": "0%"}
{"smiles": "CN(CC(C)(CCN1CCC(N(CCO)C(=O)OCc2ccc([N+](=O)[O-])cc2)CC1)c1ccsc1)S(=O)(=O)c1ccccc1", "changes": "CCR5-E283A", "protein": "CCR5", "method": "radiometric", "measure": "fold resistance", "value": ">5000"}
{"smiles": "Cc1cc(SC2=C(O)C[C@@](CCc3ccc(O)cc3)(C(C)C)OC2=O)c(C(C)(C)C)cc1CO", "protein": "Cytochrome P450 2C9", "measure": "inhibition", "tested at": "100 µM", "value": "50%"}
{"smiles": "O=C(O[C@@H]1Cc2c(O)cc(O)cc2O[C@@H]1c1ccc(O)c(O)c1)c1cc(O)c(O)c(O)c1", "protein": "CD4", "method": "ELISA", "measure": "inhibition", "tested at": "200 µM", "value": "28%"}
{"smiles": "NC(N)=NCCC[C@H](N)C(=O)NC[C@@H]1O[C@H](O[C@H]2[C@@H](O)[C@H](O[C@@H]3[C@@H](O)[C@H](N)C[C@H](N)[C@H]3O[C@H]3O[C@H](CO)[C@@H](O)[C@H](O)[C@H]3N)O[C@@H]2CO)[C@H](N)[C@@H](O)[C@@H]1O", "protein": "CXCR4", "method": "flow cytometry", "measure": "inhibition", "tested at": "10 µM", "value": "16%"}
{"smiles": "Cn1c2ccccc2c2c3c(c4c5ccccc5n(CCC#N)c4c21)CNC3=O", "protein": "cAMP-dependent protein kinase", "measure": "IC50", "value": ">100 µM"}
{"smiles": "CC(C)[C@H](C(=O)O)N1C[C@H](CN2CCC(c3ccc(F)cc3)CC2)[C@@H](c2ccccc2)C1", "protein": "L-type Ca2+ channel", "measure": "IC50", "value": ">10 µM"}
{"smiles": "CN(CCCCON)C[C@H]1O[C@@H](n2cnc3c(N)ncnc32)[C@H](O)[C@@H]1O", "protein": "Ornithine decarboxylase", "measure": "IC50", "value": "150 µM"}
{"smiles": "CC(=O)N[C@@H](Cc1cc(I)c(Oc2ccc(O)c(I)c2)c(I)c1)C(=O)O", "protein": "Protein disulfide isomerase", "measure": "IC50", "value": "86 µM"}
{"smiles": "OCC12C(c3ccccc3)C3(CO)C4N(Cc5ccccc5)C1C1(CO)C(c5ccccc5)C4(CO)C3N(Cc3ccccc3)C21", "protein": "P-glycoprotein", "method": "fluorescence", "measure": "IC50", "value": "74.37 µM"}
{"smiles": "O=S(=O)(c1cccc2cnccc12)N1CCNCC1", "protein": "Protein kinase C", "measure": "IC50", "value": "0.5 µM"}
{"smiles": "O=Nc1c(-c2c(O)[nH]c3ccccc23)[nH]c2ccccc12", "protein": "Cyclin-dependent kinase 9", "method": "radiometric", "measure": "IC50", "value": "0.05 µM"}
{"smiles": "CC(C)CN(C[C@@H](O)[C@H](Cc1ccccc1)NC(=O)[C@H](CC(N)=O)NC(=O)c1ccc2ccccc2n1)C(=O)NC(C)(C)C", "protein": "Cathepsin D", "measure": "inhibition", "tested at": "10 µM", "value": "4%"}
{"smiles": "O=C(c1ccccc1Cl)N1C[C@H](CN2CCC(O)(CCCc3ccc(-c4nn[nH]n4)cc3)CC2)[C@@H](c2ccccc2)C1", "changes": "CCR5-Y108A", "protein": "CCR5", "method": "radiometric", "measure": "IC50", "value": "0.15 µM"}
{"smiles": "NC(N)=NCCC[C@H](N)C(=O)NC[C@@H]1OC(O[C@H]2[C@@H](O)[C@H](O[C@@H]3[C@@H](O)[C@H](N)C[C@H](N)[C@H]3O[C@H]3O[C@H](CNC(=O)[C@@H](N)CCCN=C(N)N)[C@@H](O)[C@H](O)[C@H]3N)O[C@@H]2CO)[C@H](N)[C@@H](O)[C@@H]1O", "protein": "CXCR4", "method": "flow cytometry", "measure": "inhibition", "tested at": "10 µM", "value": "50%"}
{"smiles": "N#CCCn1c2ccc(O)cc2c2c3c(c4c5cc(O)ccc5[nH]c4c21)C(=O)NC3", "protein": "Protein kinase C", "measure": "IC50", "value": "0.044 µM"}
{"smiles": "CN(C[C@@H](CCN1CCc2ccccc2C1)c1cccc(Cl)c1)S(=O)(=O)c1ccccc1", "protein": "CCR5", "method": "radioligand binding / binding", "measure": "inhibition", "tested at": "10 µM", "value": "73%"}
{"smiles": "CN1C(=O)C(c2cc(Cl)c(O)c(Cl)c2)NC(=O)[C@@H]2NC(=O)C(c3cc(Cl)c(O)c(Cl)c3)NC(=O)[C@H](NC(=O)C(=O)c3cc(Cl)c(O)c(Cl)c3)Cc3c[nH]c4c(cccc34)-c3cc2cc(c3O)Oc2ccc(cc2)CC1C(=O)NC(C(=O)O)c1ccc(O)cc1", "protein": "gp120", "method": "ELISA", "measure": "IC50", "value": "<10 µg/mL"}
{"smiles": "CN(CCCNN)C[C@H]1O[C@@H](n2cnc3c(N)ncnc32)[C@H](O)[C@@H]1O", "protein": "S-adenosylmethionine decarboxylase", "measure": "IC50", "value": "0.005 µM"}
{"smiles": "CCO/N=C(\\c1ccc(Br)cc1)C1CCN(C2(C)CCN(C(=O)c3c(C)cc[n+]([O-])c3C)CC2)CC1", "protein": "CCR5", "method": "radiometric", "conditions": "8 h", "measure": "Ki", "value": "0.0032 µM"}
{"smiles": "CC(C)(C)NC(=O)[C@@H]1CN(Cc2cnc3occc3c2)CCN1C[C@@H](O)C[C@@H](Cc1ccccc1)C(=O)N[C@H]1c2ccccc2C[C@H]1O", "protein": "Cytochrome P450", "measure": "inhibition", "tested at": "10 µM", "value": "40–60%"}
{"smiles": "NC(N)=NCCC[C@H](N)C(=O)NC[C@@H]1OC(O[C@H]2[C@@H](O)[C@H](O[C@@H]3[C@@H](O)[C@H](NC(=O)[C@@H](N)CCCN=C(N)N)C[C@H](NC(=O)[C@@H](N)CCCN=C(N)N)[C@H]3O[C@H]3O[C@H](CNC(=O)[C@@H](N)CCCN=C(N)N)[C@@H](O)[C@H](O)[C@H]3NC(=O)[C@@H](N)CCCN=C(N)N)O[C@@H]2CO)[C@H](NC(=O)[C@@H](N)CCCN=C(N)N)[C@@H](O)[C@@H]1O", "protein": "CXCR4", "method": "flow cytometry", "measure": "inhibition", "tested at": "10 µM", "value": "90%"}
{"smiles": "CN(C[C@@H](CCN1CCC2(CC1)CC(=O)c1ccccc1O2)c1cccc(Cl)c1)S(=O)(=O)c1ccccc1", "protein": "CCR5", "method": "radioligand binding / binding", "measure": "inhibition", "tested at": "1 µM", "value": "42%"}
{"smiles": "OC[C@H]1O[C@@H](n2cnc3c(Cl)c(Cl)c(Cl)cc32)[C@H](O)[C@@H]1O", "protein": "Protein kinase C", "measure": "IC50", "value": ">30 µM"}
{"smiles": "COC(=O)N(CC1CCCC1)C1CCN(CCC(CN(C)S(=O)(=O)c2ccccc2)c2ccccc2)CC1", "protein": "CCR5", "method": "radioligand binding / binding", "measure": "IC50", "value": "0.01 µM"}
{"smiles": "NC(N)=NCCCC[C@@H]1NC(=O)[C@H](CCCN=C(N)N)NC(=O)[C@@H](Cc2ccc(O)cc2)NC(=O)CNC(=O)[C@H](Cc2ccc3ccccc3c2)NC1=O", "protein": "CXCR4", "method": "radiometric", "measure": "IC50", "value": "0.033 µM"}
{"smiles": "CN(C[C@@H](CCN1CCC(C(C)(C)C)CC1)c1cccc(Cl)c1)S(=O)(=O)c1ccccc1", "protein": "CCR5", "method": "radioligand binding / binding", "measure": "IC50", "value": "<10 µM"}
{"smiles": "NC(N)=NCCC[C@@H]1NC(=O)[C@H](CCCN=C(N)N)NC(=O)[C@@H](Cc2ccc(O)cc2)NC(=O)CNC(=O)[C@@H](Cc2nc3ccccc3s2)NC1=O", "protein": "CXCR4", "method": "radiometric", "measure": "IC50", "value": "0.26 µM"}

Repeating the first 4 entries:

smiles,changes,protein,method,conditions,measure,tested at,value
COc1ccnc2[nH]cc(C(=O)C(=O)N3CCN(C(=O)c4ccccc4)C[C@H]3C)c12,,gp120,ELISA,,IC50,,1.3 µM
CCN(C(=O)OCc1ccccc1)C1CCN(CC[C@](C)(CN(C)S(=O)(=O)c2ccccc2)c2ccccc2)CC1,CCR5-Y251A,CCR5,radiometric,,fold resistance,,27.5
Cn1c2ccccc2c2c3c(c4c5ccccc5n(CC(F)F)c4c21)CNC3=O,,Protein kinase C,,,IC50,,0.032 µM
CC(C)(O)c1cccc(CN2C(=O)N(Cc3cccc(C(C)(C)O)c3)[C@H](Cc3ccccc3)[C@H](O)[C@@H](O)[C@H]2Cc2ccccc2)c1,,Cathepsin D,,,inhibition,12.5 µM,0%